Laboratory results reported in article PMC8869097, “Benzothiazole Derivatives as Multifunctional Antioxidant Agents for Skin Damage: Structure–Activity Relationship of a Scaffold Bearing a Five-Membered Ring System” (Antioxidants, 2022).

Experiments:
SK-Mel 5 cells = test: Antiproliferative activity; type: cell-based, human; conditions: IC50 HEK 293 / IC50 SK-Mel5
Method: (§1) A stock solution of the compounds (20 mM in DMSO) was prepared and stored at −18 °C. Then, the compounds were diluted in the cell culture medium and tested starting with the 100 µM concentration as the upper limit. The application of equation (6) allowed to obtain the values of IC50. C1 − [50 − N1%/N2% − N1%] − (C1 − C2),(6) where C1 is the concentration of the compound which inhibits cell proliferation by more than 50%; C2 is the concentration of the compound which inhibits cell proliferation below 50%; N1% represents the number of cells (expressed as a percentage of control without compound) obtained in the presence of C1 and N2% represents the number of cells (as a percentage of control without compound) obtained in the presence of C2.
(§2) Finally, the compounds of this series of benzothiazole derivatives were tested to evaluate their antiproliferative activity in vitro against human T-cell leukemia cell line (CEM), human cervical carcinoma cells (HeLa), human pancreas cancer cells (Mia Paca-2) and human melanoma cells (SK-Mel 5). Non-cancerous HEK293T cells (Normal Kidney Epithelial Cells) were chosen as a control for cytotoxicity and/or selectivity. The results obtained have been summarized in Table 5 (data shown only for the active compounds) and are expressed as IC50 values in μM. The selectivity index (SI) was also reported, determined by comparing the values of IC50 (μM) obtained on healthy cells (HEK 293) with that obtained on tumor cells (CEM, HeLa, Mia-Paca-2 and SK- Mel 5) (Table 5).

CEM cells = test: Antiproliferative activity; type: cell-based, human; conditions: IC50 HEK 293 / IC50 CEM
Method: Human cervical carcinoma (HeLa) and human CD4+T-lymphoblast (CEM) cells were obtained from ATCC (Middlesex, UK). Human pancreatic carcinoma (Mia-Paca 2) cells were kindly provided by Prof. Anna Karlsson (Karolinska Institute, Stockholm, Sweden). All cell lines were grown in Dulbecco’s modified Eagle’s medium (DMEM; Gibco, Carlsbad, CA, USA), supplemented with 10% fetal bovine serum (FBS, Gibso), 0.01M Hepes (Gibco) and 1 mM sodium pyruvate (Gibco) in a humidified 5% CO2 incubator at 37 °C.
The cell suspensions of CEM, HeLa and Mia-Paca2 were treated with increasing concentrations of the selected compounds, following the protocol previously reported.
as §1
as §2, with “Non-cancerous HEK293T cells (Normal Kidney Epithelial Cells) were chosen as a control for cytotoxicity and/or selectivity.” left out

SMILES	SI SK-Mel5 (SK-Mel 5 cells)	SI CEM (CEM cells)
c1c[nH]c(-c2nc3ccccc3s2)c1 [Compound 8a, 2-(1H-Pyrrol-2-Yl)benzothiazole]	1.66	
c1coc(-c2nc3ccccc3s2)c1 [Compound 9a, 2-(Furan-2-Yl)benzothiazole]	1.02	2.44
c1csc(-c2nc3ccccc3s2)c1 [Compound 10a, 2-(Thiophen-2-Yl)benzothiazole]	2.00	2.22
c1c[nH]c(-c2nc3ccccc3[nH]2)c1 [Lead 10, reference compound]	3.20	2.21
